# Values from PubChem BioAssay AID1259414 (Drosophila RNAi Screening Center, 2018)
# Purpose: 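Genome-wide screen for host control of endosymbiont load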 (primary screen)
# Cell system: Drosophila JW18 cells infected with Wolbachia
# Knock-down reagent: long dsRNA against Drosophila genes, 0.25 µg dsRNA per well of a 384-well plate
# Time to read-out: 5 days
# Challenge: cells persistently infected with Wolbachia before knock-down; no added drug
# Measurement: 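Automated imaging of bacterial rRNA staining divided by host cell count, reported as plate-normalised robust z-score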
# Reading the numbers: Wolbachia per cell robust z: higher = more Wolbachia per host cell than the plate typical
# Rule for the call: 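Active if absolute robust z reaches 1.5 in two or more of three replicates, leaving out multi- or no-target dsRNAs, genes unexpressed in JW18 and A1 wells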
# The deposit covers about 24,000 reagents; this is an unselected part of those that have a named target and a result. In the full data, about 1,210 (5%) got an active call. 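Inactive calls also include excluded dsRNAs with several or no targets, genes unexpressed in JW18, and well A1, regardless of score.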 Names joined by + are all predicted targets of the reagent.
Gene,dsRNA,"Wolbachia per cell robust z, rep 1","Wolbachia per cell robust z, rep 2","Wolbachia per cell robust z, rep 3",outcome
Obp58b (Odorant-binding protein 58b),DRSC04161,-1.03,-2.77,-3.4,active
CG13654,DRSC14654,0.712,0.5,0.526,inactive
hoip (hoi-polloi),DRSC03546,5.4,6.59,6.18,active
CG13928,DRSC08397,0.13,0.0618,0.935,inactive
Idh3a (Isocitrate dehydrogenase 3a),DRSC19446,-0.113,0.285,0.429,inactive
Idh3a (Isocitrate dehydrogenase 3a),DRSC28303,-0.719,-13.6,-1.92,active
c12.1,DRSC18750,-0.2,-0.786,0.161,inactive
c12.1,DRSC25556,-0.385,-0.611,-1.01,inactive
mRpL11 (mitochondrial ribosomal protein L11),DRSC15482,0.605,0.161,0.283,inactive
Chd3,DRSC11114,-1.28,-1.7,-2.69,active
Chd3,DRSC23701,0.932,-1.3,-2.78,inactive
Ugt49B1 (UDP-glycosyltransferase family 49 member B1),DRSC04461,-5.61,0.534,-5.03,inactive
Ugt49B1 (UDP-glycosyltransferase family 49 member B1),DRSC26568,0.638,0.0487,0.103,inactive
PGS1 (Phosphatidylglycerophosphate synthase 1),DRSC16304,0.421,0.791,0.827,inactive
CG14420,DRSC17917,-0.465,-4.6,-1.57,inactive
CG14420,DRSC25167,-1.21,0.697,-0.314,inactive
Galphaq (G protein alpha subunit q),DRSC07432,-0.618,-1.21,-0.739,inactive
Galphaq (G protein alpha subunit q),DRSC25341,0.563,0.0601,-0.641,inactive
Orc6 (Origin recognition complex subunit 6),DRSC07497,1.08,0.831,0.746,inactive
CG42847,DRSC40522,-0.309,-0.37,-1.93,inactive
CG10068,DRSC12508,-0.0689,1.24,-0.119,inactive
Zaf1 (ZAD and Architectural Function 1),DRSC16121,0.28,0.236,0.966,inactive
CG14881,DRSC15005,0.226,-0.374,-1.64,inactive
CG14881,DRSC25898,-0.82,-0.522,-0.301,inactive
CG14607,DRSC12551,0.481,0.257,-0.551,inactive
CG13898,DRSC08368,0.0135,0.186,0.312,inactive
Clk (Clock),DRSC11117,1.12,0.274,-0.179,inactive
fest (wurstfest),DRSC07349,0.87,1.39,-0.269,inactive
fest (wurstfest),DRSC24249,-0.229,-0.909,-1.85,inactive
Toll-4,DRSC03458,-0.218,0.0808,0.729,inactive
CG8852,DRSC00719,-1.12,-3.56,-0.68,inactive
CG8852,DRSC24465,1.23,-0.075,-0.316,inactive
NSD (Nuclear receptor binding SET domain protein),DRSC15691,-3.15,-0.0532,1.52,inactive
Srlp (Spliceosome-ribosome linker protein),DRSC15890,0.81,1.6,-1.04,inactive
CG1161,DRSC24956,0.0146,1.65,0.768,inactive
alka (alkaliphile),DRSC06136,0.879,0.32,-1.83,inactive
"TrpRS-m (Tryptophanyl-tRNA synthetase, mitochondrial)",DRSC10848,0.42,0.0255,0.862,inactive
Pde11 (Phosphodiesterase 11),DRSC02028,0.317,-1.29,-0.787,inactive
Pde11 (Phosphodiesterase 11),DRSC02460,-0.935,1.13,1.09,inactive
Pde11 (Phosphodiesterase 11),DRSC26665,0.367,-0.564,0.522,inactive
CG31233,DRSC15888,-2.19,0.0123,-1.84,inactive
CG31493,DRSC12583,0.916,0.236,-0.17,inactive
CG14818,DRSC18548,-0.0938,0.74,0.15,inactive
CG14818,DRSC29496,-0.728,-1.03,-0.522,inactive
ImpL2 (Ecdysone-inducible gene L2),DRSC08666,-0.569,0.423,-0.428,inactive
ImpL2 (Ecdysone-inducible gene L2),DRSC28691,-6.21,0.641,-0.413,inactive
Rap1 (Rap1 GTPase),DRSC08686,0.367,1.8,1.55,active
Rap1 (Rap1 GTPase),DRSC25388,-1.24,0.894,0.449,inactive
CG5421,DRSC02858,-0.494,0.713,-1.78,inactive
CG5421,DRSC24636,-14.3,-0.53,0.31,inactive
CG14005,DRSC02337,0.842,0.913,0.542,inactive
NimC3 (Nimrod C3),DRSC03556,0.388,-0.0226,0.204,inactive
NimC3 (Nimrod C3),DRSC22528,-0.819,0.558,0.2,inactive
NimC3 (Nimrod C3),DRSC28582,0.023,-0.000813,-0.432,inactive
ttv (tout-velu),DRSC07709,0.731,-0.0777,0.0347,inactive
ttv (tout-velu),DRSC26088,-0.397,0.161,3.68,inactive
TwdlS (TweedleS),DRSC14737,-2.33,-0.979,-0.721,inactive
CG14125,DRSC10129,-2.82,-0.315,0.433,inactive
Tasp1 (Taspase 1),DRSC10495,0.546,0.183,-0.124,inactive
CG31275,DRSC16919,-1.08,0.673,1.21,inactive
Qsox4 (Quiescin sulfhydryl oxidase 4),DRSC14224,-0.502,-1.56,1.11,inactive
CG7320,DRSC10810,0.302,1.16,-0.782,inactive
CG7320,DRSC26050,-0.713,1.14,-0.534,inactive
chif + Hyls1,DRSC40557,-1.81,-0.734,0.385,inactive
hbs (hibris),DRSC07627,-1.38,0.122,0.323,inactive
CG30472,DRSC22245,-0.104,1.03,0.816,inactive
CG30472,DRSC26789,0.554,0.0331,-0.715,inactive
Adk1 (Adenosine kinase 1),DRSC15514,0.161,1.83,0.957,inactive
Rpn13R (Regulatory particle non-ATPase 13-related),DRSC18404,0.327,-1.11,0.375,inactive
Rpn13R (Regulatory particle non-ATPase 13-related),DRSC23628,0.52,-1.67,-0.607,inactive
CG14050,DRSC18594,0.519,-0.504,0.274,inactive
CG1503,DRSC20512,1.35,-4.48,-2.93,active
CG11911,DRSC00331,0.541,0.292,1.02,inactive
CG11911,DRSC27293,-0.125,1.1,0.415,inactive
CG14327,DRSC14806,0.534,1.03,0.44,inactive
CG4975 + CG4984,DRSC06907,0.381,0.721,0.308,inactive
CG4975 + CG4984,DRSC24817,-1.88,-1.07,0.195,inactive
CG34031,DRSC37860,0.525,-1.14,-0.132,inactive
BBS5 (Bardet-Biedl syndrome 5),DRSC12168,0.13,-2.06,0.51,inactive
BBS5 (Bardet-Biedl syndrome 5),DRSC27540,-1.03,0.00417,0.825,inactive
CG2258,DRSC18222,0.201,1.35,-3.42,inactive
CG2258,DRSC28795,-1.7,-0.309,-0.296,inactive
CG14323,DRSC14802,0.435,0.54,0.273,inactive
crm (cramped),DRSC18754,0.163,-0.433,-1.66,inactive
crm (cramped),DRSC26508,-0.0611,0.124,-0.00605,inactive
crm (cramped),DRSC39136,0.649,-3.35,-0.0096,inactive
CR18228 (pseudo),DRSC15317,-5.94,0.922,0.826,inactive
